Measurements reported in PubChem BioAssay AID504761 (Drosophila RNAi Screening Center, 2011).
Purpose: 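Insect host genes that dengue virus relies on to spread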 (primary screen). Cells: D.Mel-2 cells from Drosophila. Knock-down reagent: long dsRNA against Drosophila genes. Treatment: infection with dengue virus type 2; dose and infection time not stated. Read-out: 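Cells stained for dengue envelope protein and imaged; percent of infected cells per well on duplicate plates, ranked by infection, with stained nuclei counted for cell number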. Reading the numbers: infection score: higher = more virus-infected cells. Call rule: 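Low infection ranks in the two replicates (chance level up to 0.065) followed by a retest with a 1.5-fold or larger significant decrease, p below 0.05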. Meaning of the calls: active = confirmed: knock-down lowers infection; inactive = not picked or not confirmed.
The deposit covers about 22,000 reagents; this is an unselected part of those with a known target gene and a result. Of all reagents, 116 (0.52%) are marked active. 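Calls depend on retest data that are not deposited; infection was ranked per plate without normalising between plates; the unit of the infection score is not given.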 Entries without a mark were called inactive. Further read-outs or replicates are left out here. Not given: the amount of reagent, the time to read-out.

| Target gene | DRSC id | infection score, replicate 1 | infection score, replicate 2 |
| --- | --- | --- | --- |
| CG18234 | DRSC10309 | 6.55 | 16.5 |
| cathD | DRSC07588 | 3.6 | 25.7 |
| Mtr4 | DRSC03560 | 26.6 | 22 |
| Tsp86D | DRSC15607 | 2.1 | 8.67 |
| Socs44A | DRSC06828 | 8.05 | 21.3 |
| ssx | DRSC18492 | 3.79 | 3.82 |
| ssx | DRSC23454 | 3.47 | 2.22 |
| sws | DRSC18843 | 11.4 | 12.1 |
| CG6163 | DRSC10595 | 3.49 | 2.18 |
| CG6163 | DRSC26527 | 3.06 | 6.96 |
| CG34284 | DRSC14773 | 4.79 | 1.43 |
| Bace | DRSC02197 | 3.75 | 3.8 |
| Bace | DRSC28723 | 4.8 | – |
| bs | DRSC23068 | 1.69 | 19.4 |
| bs | DRSC25943 | 3.33 | 0.96 |
| Pngl | DRSC04914 | 8.59 | 8.29 |
| CG2964 | DRSC27524 | 2.72 | 6.09 |
| CG13699 | DRSC10048 | 7.17 | 1.26 |
| CG13699 | DRSC26349 | 9.88 | 5.95 |
| Tbcc | DRSC00223 | 3.29 | 2.24 |
| Tbcc | DRSC30109 | 4.94 | 6.89 |
| CG9331 | DRSC03206 | 18.3 | 32 |
| CG9331 | DRSC28815 | 12.3 | 0.21 |
| Osi12 | DRSC12177 | 2.39 | 1.8 |
| CG5440 | DRSC00685 | 1.08 | 5.82 |
| CG5440 | DRSC29429 | 2.11 | 12 |
| CG5715 | DRSC15860 | 1.07 | 2.19 |
| CG5715 | DRSC26011 | 5.98 | 15.6 |
| AdoR | DRSC16556 | 8.78 | 8.89 |
| AdoR | DRSC28071 | 5.83 | 6.21 |
| hiro | DRSC08564 | 6.36 | 13.7 |
| hiro | DRSC29780 | 16.9 | 14 |
| CG11333 | DRSC14301 | 3.3 | – |
| Sgs5 | DRSC16862 | 1.67 | 3 |
| apt | DRSC23278 | 2.11 | 8.81 |
| apt | DRSC26181 | 6.24 | 5.7 |
| Irbp | DRSC17007 | 2.02 | 8.25 |
| Irbp | DRSC23317 | 4.12 | 4.3 |
| Irbp | DRSC29386 | 12.8 | 10.1 |
| Pop4 | DRSC10955 | 11.2 | 18.6 |
| Pop4 | DRSC29825 | 17.6 | 3.28 |
| kin17 | DRSC11890 | 12.9 | 8.81 |
| kin17 | DRSC26821 | 9.89 | 1.66 |
| CG3987 | DRSC15531 | 15.1 | 20.6 |
| CG13376 | DRSC17901 | 15.7 | 9.1 |
| CG6432 | DRSC16039 | 3.2 | 3.5 |
| Prosalpha6T | DRSC02873 | 6.16 | 3.31 |
| CG30324 | DRSC22655 | 9.25 | 23.1 |
| CG30324 | DRSC26815 | 5.98 | 5.74 |
| AgmNAT | DRSC18072 | 0.75 | 1.57 |
| Nlg2 | DRSC03578 | 1.21 | 3.65 |
| Nlg2 | DRSC25217 | 3.05 | 4.99 |
| CG42237 | DRSC19891 | 3.38 | 2.6 |
| tacc | DRSC12019 | 3.27 | 1.72 |
| tacc | DRSC12388 | 1.96 | 6.43 |
| tacc | DRSC29052 | 18.3 | 12.9 |
| CR18217 | DRSC21506 | 0.77 | 11.6 |
| CG9215 | DRSC20171 | 5.1 | 9.69 |
